We go through one compound from paper PMC8876114, “Cytotoxicity and anti-HIV activities of extracts of the twigs of Croton dichogamus Pax” (BMC Complementary Medicine and Therapies, 2022).

SMILES strings stand for the structures.

In the assay the test system is HIV-1IIIB laboratory-adapted strain. Briefly: Anti-HIV activity test: prevention of HIV-1 cytopathic effect in MT-4 cells (MTT). The format is cell-based, Human immunodeficiency virus type 1. The note with it: ratio of CC50 to IC50, MT-4 cells. Here is the method:
Human immunodeficiency virus type 1 (HIV-1) IIIB (also referred to as HTLV-IIIB) was obtained through the NIH HIV Reagent Program, Division of AIDS, NIAID, NIH: Human Immunodeficiency Virus-1 IIIB, ARP-398, contributed by Dr. Robert Gallo. The effects of the test compounds in preventing the cytopathic effect resulting from HIV-1 replication were evaluated by the MTT colorimetric assay described above.
The laboratory-adapted strain of human immunodeficiency virus type 1 (HIV-1IIIB) obtained from the National Institutes of Health HIV Reagent Program was used in this experiment. A total of 50 µl of different concentrations ([…]) of the test compounds were seeded into 96-well flat-bottomed microtiter culture plates containing HIV-infected MT-4 cells.

On to `C[C@H](Cn1cnc2c(N)ncnc21)OCP(=O)(O)O` [TDF, tenofovir], for which the “SI (selectivity index)” value was 176.5.
